Measured values from several laboratories, pooled; numbers as filed in NIAID ChemDB.

All rows: tests in culture; organism: Cryptococcus neoformans; read-out: MIC

Blank or dashed fields: not listed here. Lines come from different laboratories, so protocols vary. Two numbers with a dash give a range or band.

compound	strain or isolate	result
CC(C)CC(Cn1ccnc1)c1ccc(Cl)cc1Cl		<1 µg/mL
OCC1c2ccccc2SC1c1ccccc1O	93/V	12.5 µg/mL
C[C@@H](n1ncn(-c2ccc(OCC(F)(F)C(F)F)cc2)c1=O)[C@](O)(Cn1cncn1)c1ccc(F)cc1F	DUMC 109.97	0.125 µg/mL
CCCCCOc1ccc(-c2cc(-c3ccc(C(=O)N[C@H]4C[C@@H](O)[C@@H](O)NC(=O)[C@@H]5[C@@H](O)[C@@H](C)CN5C(=O)[C@H]([C@H](O)CC(N)=O)NC(=O)[C@H]([C@H](O)[C@@H](O)c5ccc(O)c(OS(=O)(=O)O)c5)NC(=O)[C@@H]5C[C@@H](O)CN5C(=O)[C@H]([C@@H](C)O)NC4=O)cc3)no2)cc1	FMR 8411	64 µg/mL
COc1ccc(NS(=O)(=O)c2ccc(N)cc2)nn1	IFM 40216	≥256 µg/mL
CC[C@@H]([C@H](C)O)n1ncn(-c2ccc(N3CCN(c4ccc(OC[C@@H]5CO[C@@](Cn6cncn6)(c6ccc(F)cc6F)C5)cc4)CC3)cc2)c1=O	2337 (HIV+)	0.25 µg/mL
COc1cc(NC(C)CCCN)c2nc(C(C)(C)C)ccc2c1Oc1cccc(C(F)(F)F)c1		5 µg/mL
COc1ccc(C2Sc3ccccc3C2CO)c(O)c1	Isolate 25	12.5 µg/mL
COC12OC1(C13OC1(OC)C(=O)c1cc4cc(C)oc(=O)c4c(O)c1C3O)C(O)c1c(cc3cc(C)oc(=O)c3c1O)C2=O	ATCC90112	12.5 µg/mL
CCCCCCCC(Cn1ccnc1)c1ccccc1Cl		10 µg/mL
O=[N+]([O-])c1ccc2[nH]c3c4ccc(Cl)cc4nnc3c2c1		7.4 µM
CCOC(=O)[C@@H](C)NC(=O)c1c(C)cc2c(c1O)-c1c(cc3c(c1O)C(=O)c1cc(OC)cc(O)c1C3=O)[C@H](O)[C@H]2O[C@@H]1O[C@H](C)[C@H](NC)[C@H](O[C@@H]2OC[C@@H](O)[C@H](O)[C@H]2O)[C@H]1O	IAM 4514	12.5 µg/mL
Clc1ccc(C(Cn2ccnc2)NCc2ccc(-c3ccccc3)cc2)cc1		1.5 µg/mL
CCC(C)n1ncn(-c2ccc(N3CCN(c4ccc(OC[C@H]5CO[C@](Cn6cncn6)(c6ccc(Cl)cc6Cl)O5)cc4)CC3)cc2)c1=O	3 strains	0.015–0.25 µg/mL
CCCCCCCC(Cn1ccnc1)c1c(Cl)cccc1Cl		<1 µg/mL
CC(C)=C[C@H]1C[C@](C)(O)C2C3CCC4[C@@]5(C)CCC[C@](C)(O[C@H]6OC[C@H](O)[C@H](OC7O[C@H](CO)[C@@H](O)[C@H](O)[C@H]7OC(=O)/C=C/c7ccc(O)cc7)[C@H]6O[C@H]6C[C@H](CO)[C@@H](O)[C@@H]6O)C5CC[C@@]4(C)[C@@]34CO[C@@]2(C4)O1		50 µg/mL
Cc1cc(NS(=O)(=O)c2ccc(N)cc2)nc(C)n1	IFM 51976	≥256 µg/mL
CCCCCCCC(Cn1ccnc1)c1ccc(Br)cc1		<1 µg/mL
C[C@@H](n1cnc2cc(Cl)ccc2c1=O)[C@](O)(Cn1cncn1)c1ccc(F)cc1F	Isolate 125.96	≤0.0012 µg/mL
Fc1ccc(C(Cn2ccnc2)NCc2ccc(-c3ccccc3)cc2)cc1		0.7 µg/mL
CC(=O)OCC1=C(C(=O)O)N2C(=O)C(NC(=O)CSC(=O)N3CCOCC3)C2SC1		>250 µg/mL
C[C@H]1[C@H](O)[C@@H](C)/C=C/C=C/C=C/C=C/C=C/C=C/C=C/[C@H](O[C@@H]2O[C@H](C)[C@@H](O)[C@H](N)[C@@H]2O)C[C@@H]2O[C@](O)(C[C@@H](O)C[C@@H](O)CC[C@H](O)[C@@H](O)C[C@@H](O)CC(=O)O[C@H]1C)C[C@H](O)[C@H]2C(=O)O		0.04 µg/mL
C(=C\c1ccccc1)/CNC(Cn1ccnc1)c1ccccc1		>50 µg/mL
CCC(Cn1ccnc1)c1ccc(Cl)cc1Cl		<1 µg/mL
O=CCSC(=S)NCc1ccccc1		2 µg/mL
CCCCCOc1ccc(-c2cc(-c3ccc(C(=O)N[C@H]4C[C@@H](O)[C@@H](O)NC(=O)[C@@H]5[C@@H](O)[C@@H](C)CN5C(=O)[C@H]([C@H](O)CC(N)=O)NC(=O)[C@H]([C@H](O)[C@@H](O)c5ccc(O)c(OS(=O)(=O)O)c5)NC(=O)[C@@H]5C[C@@H](O)CN5C(=O)[C@H]([C@@H](C)O)NC4=O)cc3)no2)cc1	3 strains	>128 µg/mL
CNC1C(C)OC(O[C@H]2c3cc(C)c(C(=O)N[C@H](C)C(=O)ON(C)C)c(O)c3-c3c(cc4c(c3O)C(=O)c3cc(OC)cc(O)c3C4=O)[C@@H]2O)C(O)C1OC1OCC(O)C(O)C1O	IAM 4514	1.6 µg/mL
Cc1nnc(NS(=O)(=O)c2ccc(N)cc2)s1	IFM 40215	≥256 µg/mL
CC(=O)C[C@H]1C[C@H]2[C@H]([C@@H]3c4[nH]c5ccccc5c4CCN13)[C@H](O)C13CC/C=C\CCCCN1CC21CC/C=C\CCCNC13		>20 µg/mL
Clc1ccc(C(Cn2ccnc2)NCc2cccc3ccccc23)c(Cl)c1		>50 µg/mL
CCN(CC)C(=S)SCC(=O)NC1C(=O)N2C(C(=O)O)=C(COC(C)=O)CSC12		250 µg/mL
C[C@H]([C@](O)(Cn1cncn1)c1ccc(F)cc1F)S(C)(=O)=O	B4500 (AZOLE-S)	2 µM
CC(=O)OCC1=C(C(=O)O)N2C(=O)C(NC(=O)CSC(=O)N(C)C)C2SC1		63 µg/mL
CNC1C(C)OC(O[C@H]2c3cc(C)c(C(=O)N[C@H](C)C(=O)N[C@@H](CC(=O)O)C(=O)O)c(O)c3-c3c(cc4c(c3O)C(=O)c3cc(OC)cc(O)c3C4=O)[C@@H]2O)C(O)C1OC1OCC(O)C(O)C1O	IAM 4514	>100 µg/mL
COc1ccc2[nH]c3c4ccccc4nnc3c2c1		>200 µM
COc1cc(NS(=O)(=O)c2ccc(N)cc2)nc(OC)n1	IFM 49624	≥256 µg/mL
CCCCCCCCC(Cn1ccnc1)c1c(Cl)cccc1Cl		10 µg/mL
Clc1ccc2[nH]c3c4ccccc4nnc3c2c1		>200 µM
OCC1c2ccccc2SC1c1cc(Cl)ccc1O	93/V	25 µg/mL
CCCCCCCCC(Cn1ccnc1)c1ccccc1Br		10 µg/mL
CC(=O)OCC1=C(C(=O)O)N2C(=O)C(NC(=O)CSC(=O)N3CCCC3)C2SC1		>250 µg/mL
CNC1C(C)OC(O[C@H]2c3cc(C)c(C(=O)N[C@H](C)C(=O)OCOC(=O)C(C)(C)C)c(O)c3-c3c(cc4c(c3O)C(=O)c3cc(OC)cc(O)c3C4=O)[C@@H]2O)C(O)C1OC1OCC(O)C(O)C1O	IAM 4514	6.3 µg/mL
CC(=O)OCC1=C(C(=O)O)N2C(=O)C(NC(=O)CSC(=S)N(C)Cc3ccccc3)C2SC1		>250 µg/mL
CN(C)c1ccc(-c2sc3ccccc3c2CO)cc1	Farwania	12.5 µg/mL
CN[C@@H]1[C@H](O[C@@H]2OC[C@@H](O)[C@H](O)[C@H]2O)[C@@H](O)[C@H](O[C@H]2c3cc(C)c(C(=O)N[C@H](C)C(=O)O)c(O)c3-c3c(cc4c(c3O)C(=O)c3cc(OC)cc(O)c3C4=O)[C@@H]2O)O[C@@H]1C	IAM 4514	0.4 µg/mL

3 of the rows above, restated:

compound,strain or isolate,result
C(=C\c1ccccc1)/CNC(Cn1ccnc1)c1ccccc1,,>50 µg/mL
COC12OC1(C13OC1(OC)C(=O)c1cc4cc(C)oc(=O)c4c(O)c1C3O)C(O)c1c(cc3cc(C)oc(=O)c3c1O)C2=O,ATCC90112,12.5 µg/mL
Clc1ccc(C(Cn2ccnc2)NCc2ccc(-c3ccccc3)cc2)cc1,,1.5 µg/mL